Pooled drug test results. Numbers come from NIAID ChemDB, via PubChem.

All rows: growth or infection tests; agent: HIV-1; measure: fold resistance

Fold resistance: result on the changed form divided by that on wild type. An empty or dashed field is not shown. Lines come from different laboratories, so protocols vary.

structure,mutations,read by,cells,strain,value
Nc1ncnc2c1ncn2[C@H]1C=C[C@@H](OCP(=O)(O)O)O1,RT-M184V,cytopathic effect,MT-2,,0.8
Cc1cc(C#N)cc(C)c1Oc1nc(Nc2ccc(C#N)cc2)ncc1SCC(=O)NC1CCN(C(=O)OC(C)(C)C)CC1,Y181C,MTT,MT-4,,6.6
CCc1c(Sc2cc(C)cc(C)c2)n(COCc2ccccc2)c(=S)[nH]c1=O,RT-Y188H,syncytia,CEM,IIIB,162
CCC(C)OC(=O)c1cc(NC(=S)OC(C)C)ccc1Cl,RT-V106A,syncytia,CEM,,49.7
Cc1occc1C(=S)Nc1ccc(Cl)c(C(=O)OC(C)C)c1,RT-A98G,cytopathic effect / XTT,CEM + CEM-SS,NL4-3,1
N#Cc1cc(Cl)cc(Oc2c(Br)ccc(CC(=O)Nc3ccc(S(N)(=O)=O)cc3Cl)c2F)c1,V106A/F227C,,MT-4,,133
CC(C)=CCOc1cc(NC(=S)c2ccoc2C)ccc1Cl,RT-V179D,cytopathic effect / XTT,CEM + CEM-SS,NL4-3 (RT V179D),1.33
CCc1c(Sc2ccccc2)n(COCc2ccccc2)c(=S)[nH]c1=O,RT-Y181C,syncytia,CEM,IIIB,130
O=C1Nc2ccc(F)c(F)c2[C@@](C#CC2CC2)(C(F)(F)F)N1,RT-K103N,,,,12.2
C[C@H]1CO[C@@H]2Cn3cc(C(=O)NCc4ccc(F)cc4F)c(=O)c(O)c3C(=O)N12,M50I/R263K,RT activity,CBMC,NL4-3,1.9
CCN1c2ncc(CCOc3ccc(C(=O)NNC)cc3C)cc2C(=O)N(C)c2cccnc21,RT-K103N Y181C,p24,C8166,,1
Cc1cc(C#N)cc(C)c1Oc1nc(Nc2ccc(C#N)cc2)ncc1SCC(N)=O,L100I,MTT,MT-4,,4.8
CC(C)OC(=S)Nc1ccc(Cl)c(C(=O)SC(C)C)c1,RT-Y181C,syncytia,CEM,,30.1
CCN1c2ncc(CCOc3ccc(-c4ccc(C(=O)O)o4)cc3C)cc2C(=O)N(C)c2cccnc21,RT-K103N Y181C,p24,C8166,,>5
CCOC(=O)c1cc(NC(=S)OC(C)C)ccc1C,RT-Y181C,syncytia,CEM,,2750
Cc1cc(C#N)cc(C(=O)c2cc(Cl)ccc2OCC(=O)Nc2ccc(S(N)(=O)=O)nc2C)c1,RT-V108I,β-galactosidase,HeLa + HELA CD4+,HXB2,~1
Cc1cc(C#N)cc(C)c1Oc1nc(Nc2ccc(C#N)cc2)ncc1SCC(=O)NCC1CCCO1,Y188L,MTT,MT-4,,5.5
C=CCOc1cc(NC(=S)OC(C)C)ccc1C#N,RT-E138K,syncytia,CEM,,12
Cc1ccc(C2CC2)c(-c2ccc3c(c2)CCCO3)c1[C@H](OC(C)(C)C)C(=O)O,INSTI-resistant (IN-G140S),luminescence,MT-4,NL4-3,1
CC[C@@H](C)OC(=S)Nc1ccc(Cl)c(C(=O)OC(C)C)c1,RT-L100I,syncytia,CEM,,14.9
Cc1cc(C)cc(Sc2c(C(C)C)c(=O)[nH]c(=S)n2COCCO)c1,RT-K103N,syncytia,CEM,IIIB TIBO R82913-resistant (RT K103N),100
CC(C)=CCOc1cc(NC(=S)c2ccsc2C)ccc1Cl,RT-Y181C K101E,cytopathic effect / XTT,CEM + CEM-SS,UC10-resistant (RT Y181C K101E),300
CCN1c2ncc(CCOc3ccc(-c4ccc(CC(=O)O)cc4)cc3CO)cc2C(=O)N(C)c2cccnc21,RT-K103N Y181C,p24,C8166,,>1
C=C(C)COc1cc(NC(=S)OC(C)C)ccc1Cl,RT-L100I,syncytia,CEM,,>11.1
C=CCNC(=O)CSc1cnc(Nc2ccc(C#N)cc2)nc1Oc1c(C)cc(C#N)cc1C,RES056,MTT,MT-4,,177.2
C/C=C\COc1cc(NC(=S)OC(C)C)ccc1OC,RT-E138K,syncytia,CEM,,36.8
Cc1cc(Cl)cc(C(=O)c2cc(Cl)ccc2OCC(=O)Nc2ccc(S(N)(=O)=O)cc2C)c1,RT-V106I Y181C,β-galactosidase,HeLa + HELA CD4+,HXB2,~1
CC=CCOc1cc(NC(=S)c2ccoc2C)ccc1OC,RT-L100I,cytopathic effect / XTT,CEM + CEM-SS,NL4-3,20
Cc1ccccc1OC(=O)c1cc(NC(=S)OC(C)C)ccc1Cl,RT-Y181C,syncytia,CEM,,≥25
Nc1nc2c(ncn2[C@H]2CO[C@@H](CO)O2)c(=O)[nH]1,RT-K65R,cytopathic effect / XTT,MT-2,,4
CC(C)(C)OC(=O)c1cc(NC(=S)OC(C)(C)C)ccc1Cl,RT-Y181C,syncytia,CEM,,>15.4
N#C[C@]1(CO)O[C@@H](n2cnc3c(N)ncnc32)C[C@@H]1O,RT-M184V,β-galactosidase,MAGI,3TC-resistant (RT M184V),53
CCC(=O)c1ccc(F)c([C@@H]2C[C@@H]2NC(=O)Nc2ccc(C#N)cn2)c1O,NNRTI-resistant (RT G190S),β-galactosidase / luminescence,TZM-bl,LAI,0.1
Cc1cc(C#N)cc(C(=O)c2cc(Cl)ccc2OCC(=O)Nc2cnc(S(N)(=O)=O)cc2C)c1,RT-V106A Y181C,β-galactosidase,HeLa + HELA CD4+,HXB2,~1
CC(C)OC(=S)Nc1ccc(Cl)c(COC(C)(C)C)c1,RT-E138K,syncytia,CEM,,≥2.22
CCN1c2ncc(CCOc3ccc(-n4nc(C(=O)O)cc4C)cc3C)cc2C(=O)N(C)c2cccnc21,RT-K103N Y181C,p24,C8166,,>1
Cc1c(OCC2CCC2)c2cc(F)ccc2[nH]c1=O,RT-V108I Y181C,β-galactosidase,HeLa + HeLa-MAGI,NNRTI-resistant (RT V108I Y181C),>3.28
Cc1ccsc1C(=S)Nc1ccc(Cl)c(/C=N/OC(C)(C)C)c1,RT-T139I,cytopathic effect / XTT,CEM + CEM-SS,CALO(RT-T139I),2
C/C=C/COc1cc(NC(=S)OC(C)C)ccc1Cl,RT-L100I,syncytia,CEM,,10
CCN1c2ncc(CCOc3ccc(C(=O)Nc4cccc(CC(=O)O)c4)cc3C)cc2C(=O)N(C)c2cccnc21,RT-K103N Y181C,p24,C8166,,1
Cc1cc(C#N)cc(C)c1Oc1nc(Nc2ccc(C#N)cc2)ncc1SCC(=O)NC1CC1,E138K,MTT,MT-4,,4.3
CC(C)OC(=S)Nc1ccc(Cl)c(C(=O)O)c1,RT-E138K,syncytia,CEM,,>1
Cc1cc(C#N)cc(C)c1Oc1nc(Nc2ccc(C#N)cc2)ncc1SCC(=O)NCCN1CCN(C(=O)OC(C)(C)C)CC1,Y181C,MTT,MT-4,,4.2
CC(C)O/N=C/c1cc(NC(=S)OC(C)C)ccc1Cl,RT-E138K,syncytia,CEM,,7
Cn1c2ccccc2c2c1cc(C#N)c(=O)n2-c1ccc([N+](=O)[O-])cc1,RT-F227C,cytopathic effect / MTT,MT-4,E,3
C=CCO/N=C/c1cc(NC(=S)c2ccoc2C)ccc1Cl,RT-D67N K70R L100I T215Y K219Q,cytopathic effect / XTT,CEM + CEM-SS,4xAZT/L100I(RT-D67N K70R T215Y K219Q L100I),186
CC(C)OC(=O)c1cc(NC(=O)OCC2CC2)ccc1Cl,RT-V106A,syncytia,CEM,,20
Cc1cc(S(N)(=O)=O)ccc1NC(=O)COc1ccccc1C(=O)c1cc(Cl)cc(C#N)c1,RT-K103N P225H,β-galactosidase,HeLa MAGI + HeLa,,10
C#CCOC(=O)c1cc(NC(=S)OC(C)C)ccc1Cl,RT-E138K,syncytia,CEM,,20.7
CCOCn1c(Cc2ccccc2)c(CC)c(=O)[nH]c1=O,RT-K103N,syncytia,CEM,IIIB TIBO R82913-resistant (RT K103N),18.1
Cc1occc1C(=S)Nc1ccc(Cl)c(/C=N/OC(C)(C)C)c1,RT-L100I,cytopathic effect / XTT,CEM + CEM-SS,NL4-3,27.5
Cc1ccc(C2CC2)c(-c2cc(F)c3c(c2C)CCCO3)c1[C@H](OC1CC1)C(=O)O,PI-resistant ARP-4596 (L10R/M46I/L63P/V82T/I84V),luminescence,MT-4,NL4-3,1
O=C(COc1ccc(Cl)cc1C(=O)c1cc2ccccc2o1)Nc1ccccc1,RT-Y181C,cytopathic effect / propidium iodide,MT-4,Nevirapine-resistant (RT Y181C),~10
Cc1occc1C(=S)Nc1ccc(Cl)c(C(=O)OCC2CC2)c1,RT-D67N K70R Y181C T215Y K219Q,cytopathic effect / XTT,CEM + CEM-SS,4XAZT/Y181C (RT D67N K70R Y181C T215Y K219Q),2.2
CC(C)OC(=O)c1cc(NC(=S)OCC2(C)COC2)ccc1Cl,RT-E138K,syncytia,CEM,,>1.07
Cc1cc(C#N)cc(C)c1Oc1nc(Nc2ccc(C#N)cc2)ncc1SCC(=O)NCc1ccc(O)cc1,E138K,MTT,MT-4,,3.5
CCCCOC(=S)Nc1ccc(Cl)c(C(=O)OC(C)C)c1,RT-L100I,syncytia,CEM,,58.3
O=C1Nc2ccc(F)c(F)c2[C@@](/C=C/C2CC2)(C(F)(F)F)N1,RT-K101E,,,,<6.32
COCCNC(=O)CSc1cnc(Nc2ccc(C#N)cc2)nc1Oc1c(C)cc(C#N)cc1C,K103N,MTT,MT-4,,0.5
CC(C)OC(=O)Nc1ccc(Cl)c(C(=O)OC(C)C)c1,RT-L100I,syncytia,CEM,,1.36
CCc1c(Sc2cc(C)cc(C)c2)n(COCc2ccccc2)c(=O)[nH]c1=O,RT-Y181C,syncytia,CEM,IIIB,80
CN1CCN(C(=O)c2ccc3c(=O)c4ccccc4[nH]c3c2)CC1,RT-V106A,syncytia,CEM,,92.2
N#Cc1cc2[nH]c3ccccc3c2n(-c2ccc([N+](=O)[O-])cc2)c1=O,RT-K103N Y181C,cytopathic effect / MTT,MT-4,H,5

For reference, 6 entries again:

structure,mutations,read by,cells,strain,value
C=CCNC(=O)CSc1cnc(Nc2ccc(C#N)cc2)nc1Oc1c(C)cc(C#N)cc1C,RES056,MTT,MT-4,,177.2
Cn1c2ccccc2c2c1cc(C#N)c(=O)n2-c1ccc([N+](=O)[O-])cc1,RT-F227C,cytopathic effect / MTT,MT-4,E,3
CCN1c2ncc(CCOc3ccc(-n4nc(C(=O)O)cc4C)cc3C)cc2C(=O)N(C)c2cccnc21,RT-K103N Y181C,p24,C8166,,>1
CCN1c2ncc(CCOc3ccc(-c4ccc(CC(=O)O)cc4)cc3CO)cc2C(=O)N(C)c2cccnc21,RT-K103N Y181C,p24,C8166,,>1
C[C@H]1CO[C@@H]2Cn3cc(C(=O)NCc4ccc(F)cc4F)c(=O)c(O)c3C(=O)N12,M50I/R263K,RT activity,CBMC,NL4-3,1.9
CC=CCOc1cc(NC(=S)c2ccoc2C)ccc1OC,RT-L100I,cytopathic effect / XTT,CEM + CEM-SS,NL4-3,20